# Experimental data as given in ChEMBL document CHEMBL5038580 (J Med Chem, 2022).
# Test system: Middle East respiratory syndrome-related coronavirus
# Assay: Antiviral activity against MERS-CoV assessed as reduction in viral infection preincubated with virus for 30 mins followed by Huh-7 cells addition and culture replaced with fresh medium after 12 hrs post infection measured after 48 hrs by fluorescence assay
smiles,measurement,value
CC[C@H](C)[C@H](NC(C)=O)C(=O)N[C@@H](CCC(=O)O)C(=O)N[C@@H](CCC(=O)O)C(=O)N[C@H](C(=O)N[C@H](C(=O)N[C@@H](CCCCN)C(=O)N[C@@H](CCCCN)C(=O)N[C@H](C(=O)N[C@@H](Cc1c[nH]cn1)C(=O)N[C@@H](Cc1c[nH]cn1)C(=O)N[C@H](C(=O)N[C@@H](CCC(=O)O)C(=O)N[C@@H](CCCNC(=N)N)C(=O)N[C@@H](C)C(=O)N[C@H](C(=O)N[C@@H](CCC(=O)O)C(=O)N[C@@H](C)C(=O)N[C@@H](CCC(N)=O)C(=O)N[C@@H](CCC(N)=O)C(=O)N[C@@H](CCCCN)C(=O)N[C@@H](CC(C)C)C(=O)N[C@@H](CC(C)C)C(=O)N[C@@H](CCC(N)=O)C(=O)N[C@@H](CC(C)C)C(=O)N[C@H](C(=O)N[C@H](C(=O)N[C@@H](Cc1c[nH]c2ccccc12)C(=O)NCC(=O)N[C@H](C(=O)N[C@@H](CCCCN)C(=O)N[C@@H](CCC(N)=O)C(=O)N[C@@H](CC(C)C)C(=O)N[C@@H](CCC(N)=O)C(=O)N[C@@H](C)C(=O)N[C@@H](CCCNC(=N)N)C(=O)N[C@H](C(=O)N[C@@H](CC(C)C)C(N)=O)[C@@H](C)CC)[C@@H](C)CC)C(C)C)[C@@H](C)O)[C@@H](C)CC)[C@@H](C)CC)[C@@H](C)CC)C(C)C)[C@@H](C)CC,IC50,> 20 µM
